For one experiment, the system named is Cryptococcus neoformans. Conditions: ATCC 208821, Concentration 20.0 uM.
The test system of a further experiment is Candida albicans. Conditions: ATCC 90028, Concentration 20.0 uM.
For another experiment, the system named is Pseudomonas aeruginosa. Conditions: ATCC 27853, Concentration 20.0 uM.
The next experiment concerns Klebsiella pneumoniae. To be noted: ATCC 700603, Concentration 20.0 uM.
The next experiment relates to Staphylococcus aureus. Put plainly: Antibacterial activity against Staphylococcus aureus MRSA ATCC 43300 (CO-ADD:GP_020); MIC in CAMBH media using NBS plates, by Resazurin F(560/590). It counts as functional. To be noted: Concentration 20.0 uM. On the technique in general: Alamar Blue is a resazurin reagent that responds to reducing activity.
The subject of the next experiment is Escherichia coli. As to the kind of experiment: Antibacterial activity against Escherichia coli ATCC 25922 (CO-ADD:GN_001); MIC in CAMBH media using NBS plates, by Resazurin F(560/590). It is filed as functional. Conditions: Concentration 20.0 uM.
Another experiment has as its system Acinetobacter baumannii. As to the kind of experiment: Antibacterial activity against Acinetobacter baumannii ATCC 19606 (CO-ADD:GN_034); MIC in CAMBH media using NBS plates, by Resazurin F(560/590). Conditions: Concentration 20.0 uM. It counts as functional.

For the compound `O=[N+]([O-])c1ccc(Nc2ccc(Oc3ccc([N+](=O)[O-])cc3[N+](=O)[O-])cc2)c([N+](=O)[O-])c1`, the inhibition (commonly the change of the read-out against control, counted positive when it falls) with Cryptococcus neoformans is -2.63%; in the experiment with Candida albicans, -0.35%; in the experiment with Pseudomonas aeruginosa it was 24.6%; in the experiment with Klebsiella pneumoniae, 14.9%.

Take `Nc1cccc2c([As](=O)(O)O)cccc12`: the values for the inhibition in the experiment on Cryptococcus neoformans, in the experiment on Candida albicans and in the experiment on Pseudomonas aeruginosa were -7.53%, -1.1% and 12.2%, respectively.

Turning to `O=[As](O)(O)c1cccnc1`, the inhibition was -2.41% with Cryptococcus neoformans, 0.55% with Candida albicans, 6.33% with Pseudomonas aeruginosa and 5.22% in the experiment on Klebsiella pneumoniae.

Regarding `O=[As](O)(c1ccc(Cl)cc1)C1CCCCC1O` (centres undefined), the inhibition in the experiment on Cryptococcus neoformans was -9.45%; with Candida albicans, 0.35%; in the experiment on Pseudomonas aeruginosa, 19%; with Klebsiella pneumoniae, 10.7%.

For `Nc1ccc([As](=O)(O)O)c(O)c1`, the inhibition is -0.86% in the experiment with Candida albicans, 6.7% in the experiment with Pseudomonas aeruginosa and 9.97% with Klebsiella pneumoniae.

In the case of `O=[As]1(O)c2ccccc2-c2ccccc21`, the inhibition is -4.96% with Cryptococcus neoformans, 4.49% with Candida albicans, -4.16% in the experiment on Pseudomonas aeruginosa and 14.6% with Klebsiella pneumoniae.

`O=[As](O)(c1cccc(O)c1)c1cccc(O)c1`: the inhibition with Cryptococcus neoformans was -5.47%; in the experiment on Candida albicans, 1.82%; in the experiment on Pseudomonas aeruginosa, -7.13%; in the experiment on Klebsiella pneumoniae it was 11.7%.

As for `O=[N+]([O-])c1ccc(OP2(=O)COCCO2)cc1` (centres undefined), the inhibition with Staphylococcus aureus is -7.59%; in the experiment with Cryptococcus neoformans, -7.05%; in the experiment on Candida albicans, 6.14%; in the experiment on Escherichia coli it was -6.91%; with Pseudomonas aeruginosa it was -4.49%; in the experiment on Klebsiella pneumoniae it was 10.9%. Moreover, the inhibition in the experiment with Acinetobacter baumannii is 1.25%.

Turning to `CCCOP(=S)(Nc1nc(N)cc(O)n1)OCCC`, the inhibition was -4.47% in the experiment with Cryptococcus neoformans, 2.06% in the experiment with Candida albicans, 16.7% in the experiment with Pseudomonas aeruginosa and 7.63% in the experiment with Klebsiella pneumoniae.

As for `CCOP(=O)(Nc1ccc(C)cn1)OCC`, the inhibition was -4.73% in the experiment with Cryptococcus neoformans, 2.14% with Candida albicans, 8.78% in the experiment on Pseudomonas aeruginosa and 8% with Klebsiella pneumoniae.

Consider `Nc1cccc([As](=O)(O)c2ccccc2)c1`, for which the inhibition in the experiment on Cryptococcus neoformans was -9.06%; in the experiment with Candida albicans, -0.55%; in the experiment on Pseudomonas aeruginosa it was 5.26%; in the experiment on Klebsiella pneumoniae, 18.4%.

As for `CC(=O)Nc1ccc([As](=O)(O)O)cc1`, the inhibition in the experiment with Cryptococcus neoformans was -7.62%; in the experiment on Candida albicans, 5.27%; in the experiment with Pseudomonas aeruginosa, 2.82%; in the experiment with Klebsiella pneumoniae it was 6.95%.

On to `CCOC(=O)Nc1cccc([As](=O)(O)O)c1`, for which the inhibition in the experiment with Cryptococcus neoformans was -0.74%; in the experiment on Candida albicans, 8.09%; with Pseudomonas aeruginosa it was -9.75%; with Klebsiella pneumoniae, 17.9%.

With `COc1ccc(O)c2c(=O)c3c(OC)cc4c(c3oc12)[C@@H]1C=CO[C@@H]1O4`, the inhibition came to 6.09% in the experiment with Cryptococcus neoformans, 0.86% in the experiment on Candida albicans, 13.5% with Pseudomonas aeruginosa and 5.12% in the experiment on Klebsiella pneumoniae.

For `COc1cc(I)ccc1[As](=O)(O)O`, the inhibition was 0.69% in the experiment with Cryptococcus neoformans, -1.48% in the experiment on Candida albicans, 19.5% with Pseudomonas aeruginosa and 13.2% in the experiment on Klebsiella pneumoniae.

For `O=C(O)CNc1ccc([As](=O)(O)O)cc1`, the inhibition was -2.42% in the experiment with Cryptococcus neoformans, -0.31% with Candida albicans, -5.72% in the experiment with Pseudomonas aeruginosa and 13.1% in the experiment with Klebsiella pneumoniae.

For `O=C(O)COc1ccc([As](=O)(O)O)cc1[N+](=O)[O-]`, the inhibition was -3.88% in the experiment on Cryptococcus neoformans, 1.79% in the experiment on Candida albicans, 15.6% in the experiment on Pseudomonas aeruginosa and 10.3% in the experiment with Klebsiella pneumoniae.

With `CCOC(=O)Nc1ccc([As](=O)(O)O)c(O)c1`, the inhibition is -6.78% in the experiment with Cryptococcus neoformans, 0.44% with Candida albicans, -2.18% with Pseudomonas aeruginosa and 4.46% with Klebsiella pneumoniae.

On to `O=[As](O)(c1cccs1)c1cccs1`, for which the inhibition in the experiment with Candida albicans is 6.82%; with Pseudomonas aeruginosa, 12.2%; in the experiment on Klebsiella pneumoniae it was 13.2%.

In the case of `Nc1cccc2ccc([As](=O)(O)O)cc12`, the values for the inhibition in the experiment with Cryptococcus neoformans, in the experiment on Candida albicans and in the experiment on Klebsiella pneumoniae were 2.47%, 5.26% and 11.6%, respectively.

`O=P1(N(CCCl)CCCl)OCCC2CCCCN21` (centres undefined): the inhibition in the experiment with Cryptococcus neoformans was -4.28%; with Candida albicans, 1.77%; with Pseudomonas aeruginosa, 20.1%; with Klebsiella pneumoniae it was 8.56%.

Turning to `C[As](=O)(O)c1cccc(C(=O)O)c1`, the inhibition with Cryptococcus neoformans was 11.1%; in the experiment on Candida albicans it was 5.01%; in the experiment with Pseudomonas aeruginosa it was 10.3%; in the experiment on Klebsiella pneumoniae it was -0.86%.

On to `O=C(O)c1ccccc1[As](=O)(O)O`, for which the inhibition with Cryptococcus neoformans is -2.52%; in the experiment with Candida albicans, 10.2%; in the experiment on Pseudomonas aeruginosa it was 5.99%; in the experiment with Klebsiella pneumoniae, 10.8%.

`Nc1ccc([As](=O)(O)c2ccc([N+](=O)[O-])cc2)cc1`: the inhibition in the experiment with Candida albicans amounted to 3.13%; in the experiment with Pseudomonas aeruginosa it was 22%; in the experiment with Klebsiella pneumoniae, 12.5%.

In the case of `c1cc(-c2nn[nH]n2)ccc1-c1nn[nH]n1`, the inhibition with Cryptococcus neoformans was 0.4%; in the experiment on Candida albicans, 3.69%; with Pseudomonas aeruginosa, -2.02%; with Klebsiella pneumoniae it was 16.4%.

In the case of `O=[As](O)(c1ccccc1)c1ccc(O)cc1`, the inhibition in the experiment with Candida albicans amounted to 1.56%; in the experiment with Pseudomonas aeruginosa, 4.81%; with Klebsiella pneumoniae, 9.32%.

`O=C(Nc1cc([As](=O)(O)O)ccc1O)c1ccccc1`: the inhibition in the experiment on Candida albicans was -0.29%; in the experiment on Pseudomonas aeruginosa, 21.8%; in the experiment on Klebsiella pneumoniae, 9.13%.

The record behind these values is ChEMBL document CHEMBL4296182, “CO-ADD screening of NIH NCI Diversity Set V”.
